Results from patent US5294603A, “Pharmaceutical compositions containing didemnins” (The Board of Trustees of The University of Illinois, priority 1992, dated 1994).

Tested on: Visna virus (VIV)
Test: Anti-VIV activity, % protection (Tables VI, 9)
Assay type: cell-based
Details: Table VI, dose 0.3 (unit not given)

Substance: -Ketobutyryl-Pro Didemnin A
- % Protection: I
